Results of unrelated studies side by side (data: NIAID ChemDB).

All rows: whole-cell or culture tests; organism: Aspergillus fumigatus; endpoint: MIC

Blank or dashed fields: not listed here. Lines come from different laboratories, so protocols vary.

compound | read by | strain | result
Cc1nn(-c2ccccc2)c2c1C(c1c(O)c3ccccc3oc1=O)c1c(oc3ccccc3c1=O)O2 | agar diffusion / agar |  | 50 µg/mL
Cc1ccc2nc(Sc3ccc(Cl)cc3)c(C3C(C#N)=C(N)Oc4c3c(=O)oc3ccccc43)cc2c1 | broth dilution | MTCC 3008 | >1000 µg/mL
O=C(/C=C/c1ccccc1[N+](=O)[O-])c1ccccc1 |  | ATCC 26934 | >50 µg/mL
CCCCCOc1ccc(-c2cc(-c3ccc(C(=O)N[C@H]4C[C@@H](O)[C@@H](O)NC(=O)[C@@H]5[C@@H](O)[C@@H](C)CN5C(=O)[C@H]([C@H](O)CC(N)=O)NC(=O)[C@H]([C@H](O)[C@@H](O)c5ccc(O)c(OS(=O)(=O)O)c5)NC(=O)[C@@H]5C[C@@H](O)CN5C(=O)[C@H]([C@@H](C)O)NC4=O)cc3)no2)cc1 | XTT | ATCC 204305 | >128 µg/mL
Cc1ccc(Sc2nc3ccc(C)cc3cc2C2C(C#N)=C(N)Oc3c2c(=O)oc2ccccc32)cc1 | broth dilution | MTCC 3008 | 500 µg/mL
O=c1oc2ccccc2c(O)c1C(c1c(O)c2ccccc2oc1=O)c1coc2ccccc2c1=O | agar diffusion / agar |  | 25 µg/mL
Cc1ccc(Sc2nc3ccccc3cc2C2C(C#N)=C(N)Oc3c2c(=O)oc2ccc(C)cc32)cc1 | broth dilution | MTCC 3008 | >1000 µg/mL
COc1ccc(OC)c(C(=O)/C=C/c2cc3cc(OC)c(OC)cc3nc2Cl)c1 |  | ATCC 26934 | >50 µg/mL
COc1ccc2nc(Sc3ccc(C)cc3)c(C3C(C#N)=C(N)Oc4c3c(=O)oc3ccccc43)cc2c1 | broth dilution | MTCC 3008 | 1000 µg/mL
N#CC(C#N)C(CC(=O)c1ccccc1)c1ccc2ccccc2c1 |  | ATCC 26934 | >50 µg/mL
CCC(C)n1ncn(-c2ccc(N3CCN(c4ccc(OC[C@H]5CO[C@](Cn6cncn6)(c6ccc(Cl)cc6Cl)O5)cc4)CC3)cc2)c1=O |  | NFI 0159 | 0.25 µg/mL
O=C(/C=C/c1ccc(Cl)cc1Cl)c1ccccc1 |  | ATCC 26934 | >50 µg/mL
COc1cccc(C=O)c1O | agar | AF293 | 500 µM
CN(C/C=C/C#CC(C)(C)C)Cc1cccc2ccccc12 |  | NFI 0239 | 2 µg/mL
COc1ccc(/C=C/C(=O)c2ccccc2)cc1 |  | ATCC 26934 | >50 µg/mL
COc1ccccc1C=O | agar | AF293 | 2000 µM

A second listing of 2 rows from above:

compound | read by | strain | result
COc1ccc(OC)c(C(=O)/C=C/c2cc3cc(OC)c(OC)cc3nc2Cl)c1 |  | ATCC 26934 | >50 µg/mL
O=C(/C=C/c1ccccc1[N+](=O)[O-])c1ccccc1 |  | ATCC 26934 | >50 µg/mL